Compound potency records, mixed from different reports. Data source: NIAID ChemDB in PubChem.

Shared fields: host cell toxicity; cells: MT-4; measure: CC50

An empty or dashed field is not shown. Neighbouring rows are from separate reports. CCn: concentration that lowers growth or viability of the cells by n%.

structure,method,result
CC(=O)OC[C@H]1O[C@@H](n2ccc(N)nc2=O)CS1,,350 µM
CC1CCC(C(C)C)/C(=N/NC(=O)Nc2cccc(Cl)c2)C1,,>125 µg/mL
CC(C)c1c(OC#CC2CC2)c2cc(Cl)ccc2[nH]c1=O,,16 µM
Nc1nc2c(ncn2[C@H]2C=C[C@@H](COP(=O)(O)OP(=O)(O)OP(=O)(O)O)C2)c(=O)[nH]1,,4.6 µM
COc1cc2c(c(O)c1OC)-c1c(cc(OC)c(OC)c1O)C[C@H](C)[C@H](C)C2,MTT,205 µM
CC1=C(C(=O)Nc2cc(Cl)ccc2Cl)C2=NN=C(N)C2C(=O)N1,MTT,49.1 µg/mL
Cc1cccc(C(C)(O)c2c(C)c(=O)[nH]c(=O)n2COCc2ccccc2)c1,MTT,133 µM
Nc1nc2c(ncn2COC(CO)CO)c(=O)[nH]1,,>10 µM
CC1=C(C(=O)Nc2ccc(Cl)cc2)C2=NN=C(N)C2C(=O)N1,MTT,93.5 µg/mL
COc1ccc(C(Cl)c2ccnc(Nc3ccc(C#N)cc3)n2)cc1,MTT,33.6 µM
CC1=C(C(=O)Nc2ccc([N+](=O)[O-])cc2)C2=NN=C(N)C2C(=O)N1,MTT,56.8 µg/mL
Nn1cc(C(=O)O)c(=O)c2cc(O)c(N3CCN(c4cccc(C(F)(F)F)c4)CC3)cc21,MTT,20.96 µM
COc1ccc(CSc2nc(C(C#N)c3ccccc3Br)c(C)c(=O)[nH]2)cc1,MTT,>86.65 µM
CC(C)COC(=O)N(Cc1ccccc1)CC(O)C(Sc1ccccc1)N(Cc1ccccc1)C(=O)OCC(C)C,,50 µM
CCCc1c(OCC2CCC2)c2cc(F)ccc2[nH]c1=O,,47.2 µM
COc1ccc(NC(=S)N/N=C2\CC(C)CCC2C(C)C)cc1,,84.6 µg/mL
COc1cccc2c1nc(-c1ccccc1F)n2Cc1ccc(Cl)s1,,5 µg/mL
C=C1C(n2ccc(=O)[nH]c2=O)C=CC1(CO)CO,,99 µM
CC[C@H](C)[C@H](NC(=O)OC(C)(C)C)C(=O)NNc1ccn([C@H]2CC[C@@H](CO)O2)c(=O)n1,,>100 µM
CCO/C(CC(=O)NCc1ccccc1)=N\Nc1ccccc1[N+](=O)[O-],MTT,0.82 µM
C=C(c1ccccc1)c1c(CC)c(=O)[nH]c(=O)n1COCC,MTT,>100 µM
COc1cccc2c1nc(-c1ccccc1F)n2Cc1cc(F)cc(F)c1,,>25 µg/mL
Cc1c(C(C)c2c(F)cccc2F)nc(N(C)C)[nH]c1=O,MTT,>100 µM
C=C(c1cc(C)cc(C)c1)c1c(CC)c(=O)[nH]c(=O)n1COC/C(C)=C/c1ccccc1,MTT,31 µM
Cc1ccnc2c1NC(=O)c1cccnc1N2C1CC1,,>40 µg/mL
Nc1cc2c(=O)c(C(=O)O)cn(N)c2cc1N1CCN(c2ccccn2)CC1,MTT,36.46 µM
CC[C@H](C)[C@H]([NH3+])C(=O)NNc1ccn([C@H]2CC[C@@H](CO)O2)c(=O)n1,,>100 µM
C=CCOCn1c(Cc2c(F)c(F)cc(F)c2F)c(CC)c(=O)[nH]c1=O,,>100 µM
CCO/C(CC(=O)NCc1ccc(F)cc1)=N\Nc1ccccc1[N+](=O)[O-],MTT,5.17 µM
C=CCOCn1c(C(=C)c2cc(C)cc(C)c2)c(CC)c(=O)[nH]c1=O,MTT,36 µM
COc1ccc(Cl)cc1NC(=O)C1=C(C)NC(=O)C2C(N)=NN=C12,MTT,73.1 µg/mL
CCOCn1c(Cc2c(F)c(F)cc(F)c2F)c(CC)c(=O)[nH]c1=O,,>100 µM
CCC(O)(c1cccc(C)c1)c1c(C)c(=O)[nH]c(=O)n1COCc1ccccc1,MTT,154 µM
C=C(c1cc(C)cc(C)c1)c1c(CC)c(=O)[nH]c(=O)n1COCC=C(C)C,MTT,28 µM
CCC(C)C(NC(=O)C(N)CO)C(=O)NC(C)C(=O)NC(CCC(=O)O)C(=O)NN[C@@]12NC(=O)[C@@]3(O)C4C5C(C41)[C@@H]1C[C@H]5C3C12,,0.078 µM
C=C(C)COCn1c(Cc2cccc(F)c2)c(CC)c(=O)[nH]c1=O,,>100 µM
Cc1cn([C@H]2C[C@H](n3cc([N+](=O)[O-])nc3C)[C@@H](CO)O2)c(=O)[nH]c1=O,,70 µM
C=CCOCn1c(Cc2cccc(C(F)(F)F)c2)c(CC)c(=O)[nH]c1=O,,77 µM
CCC(c1ccccc1OC)c1c(C)c(=O)[nH]c(=O)n1COCc1ccccc1,MTT,32.35 µM
CC(C)[C@H](NC(=O)N(C)c1ccccc1)C(=O)NC(Sc1ccccc1)C(O)C(NC(=O)[C@@H](NC(=O)N(C)c1ccccc1)C(C)C)Sc1ccccc1,,10 µM
COc1cccc2c1nc(-c1ccccc1F)n2CCC=C(C)C,,12.05 µg/mL
C=CCOCn1c(Cc2cc(C(F)(F)F)cc(C(F)(F)F)c2)c(C(C)C)c(=O)[nH]c1=O,,>100 µM
CC1=C(C(=O)Nc2ccccc2F)C2=NN=C(N)C2C(=O)N1,MTT,82.9 µg/mL
CC(C)=Nn1cc(C(=O)O)c(=O)c2cc(N)c(N3CCN(c4ccccn4)CC3)cc21,MTT,1.11 µM
FC(F)(F)c1cccc(NC(=S)NCc2ccco2)c1,MTT,44.7 µM
O=C1CSC(c2c(Cl)cccc2Cl)N1Cc1ccco1,MTT,44.8 µM
C=Cn1cc(C(=O)O)c(=O)c2cc(N)c(N3CCN(c4ccccn4)CC3)cc21,MTT,0.3 µM
COc1ccc(CN(CC(O)C(Sc2ccccc2)N(Cc2ccc(OC)cc2)C(=O)N(C)c2ccccc2)C(=O)N(C)c2ccccc2)cc1,,10 µM
COc1cccc2c1nc(-c1ccccc1F)n2CCC#N,,66 µg/mL
FC(F)(F)c1cccc(NC(=S)NC2CCN(Cc3ccccc3)CC2)c1,MTT,26 µM
CCO/C(CC(=O)NCc1ccc(OC)cc1)=N\Nc1ccccc1[N+](=O)[O-],MTT,>30.68 µM
Cc1c(C(C)(O)c2ccc(Cl)cc2)n(COCc2ccccc2)c(=O)[nH]c1=O,MTT,89.07 µM
C=C(c1cccc2ccccc12)c1c(CC)c(=O)[nH]c(=O)n1COCC,MTT,66 µM
CC(=O)Nc1ccn([C@H]2CS[C@@H](COC(C)=O)O2)c(=O)n1,,330 µM
CCCc1c(OC2CCCC2)c2cc(F)ccc2[nH]c1=O,,21.2 µM
Nc1cc2c(=O)c(C(=O)O)cn(N)c2cc1N1CCN(c2cccc(C(F)(F)F)c2)CC1,MTT,4.49 µM
CCC(C)C#COc1c(C(C)C)c(=O)[nH]c2ccc(F)cc12,,18 µM
CC1=C(C(=O)Nc2ccc(Cl)c(Cl)c2)C2=NN=C(N)C2C(=O)N1,MTT,62.9 µg/mL
COc1cccc2c1c(/C(O)=C\C(=O)C(=O)O)cn2Cc1ccc(F)cc1,MTT,41.1 µM
C=C(c1cc(C)cc(C)c1)c1c(CC)c(=O)[nH]c(=O)n1COC1Cc2ccccc2C1,MTT,34 µM
C#CCOCn1c(Cc2cccc(C(F)(F)F)c2)c(C(C)C)c(=O)[nH]c1=O,,46 µM
CC(C)[C@H](NC(=O)OC(C)(C)C)C(=O)NC(Sc1ccccc1)C(O)C(NC(=O)[C@@H](NC(=O)OC(C)(C)C)C(C)C)Sc1ccccc1,,100 µM
CC(C)c1c(OCC2CCC2)c2cc(Cl)ccc2[nH]c1=O,,44 µM
CCCC(C(=O)O)c1c(-c2ccccc2)c2cc(Cl)ccc2n(CCC)c1=O,,64.4 µM
Cc1ccc(NC(=S)NCc2ccco2)cc1Cl,MTT,100 µM
CC(=O)Nc1ccn([C@H]2CS[C@@H](CO)O2)c(=O)n1,,380 µM
Cc1ccc(Cl)cc1NC(=S)NC1CCN(Cc2ccccc2)CC1,MTT,37 µM
C=CCOCn1c(Cc2cc(F)ccc2F)c(CC)c(=O)[nH]c1=O,,>100 µM

Repeating the first 5 entries:

structure,method,result
CC(=O)OC[C@H]1O[C@@H](n2ccc(N)nc2=O)CS1,,350 µM
CC1CCC(C(C)C)/C(=N/NC(=O)Nc2cccc(Cl)c2)C1,,>125 µg/mL
CC(C)c1c(OC#CC2CC2)c2cc(Cl)ccc2[nH]c1=O,,16 µM
Nc1nc2c(ncn2[C@H]2C=C[C@@H](COP(=O)(O)OP(=O)(O)OP(=O)(O)O)C2)c(=O)[nH]1,,4.6 µM
COc1cc2c(c(O)c1OC)-c1c(cc(OC)c(OC)c1O)C[C@H](C)[C@H](C)C2,MTT,205 µM